Publication PMC12035560, “Structures of Mycobacterium tuberculosis isoprenyl diphosphate synthase Rv2173 in substrate-bound forms” (Acta Crystallographica Section F: Structural Biology …, 2025)

By UniProt entry, the sequences of proteins in these tests, tags left out. Where a name states a change or a piece, a line headed by the entry shows the natural chain unless it says otherwise.
UniProt O53507: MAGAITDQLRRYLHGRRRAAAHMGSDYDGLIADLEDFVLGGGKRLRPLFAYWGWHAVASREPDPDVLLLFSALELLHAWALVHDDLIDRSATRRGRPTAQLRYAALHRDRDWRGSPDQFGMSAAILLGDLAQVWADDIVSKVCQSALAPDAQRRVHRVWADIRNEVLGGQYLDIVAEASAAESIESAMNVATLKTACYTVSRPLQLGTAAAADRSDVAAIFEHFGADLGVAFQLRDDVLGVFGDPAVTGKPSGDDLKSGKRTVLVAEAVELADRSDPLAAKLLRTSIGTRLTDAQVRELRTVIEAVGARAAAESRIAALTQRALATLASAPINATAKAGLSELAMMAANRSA

Biological target: T1, Rv2173 (Mycobacterium tuberculosis, UniProt O53507)
T1 construct: gene idsA2

## C=C(C)CCOP(=O)(O)OP(=O)(O)O [IPP]
  X-ray crystal structure, 2.20 A, co-crystallization: with the IPP occupying the putative allylic/DMAPP site, coordinating all three metal ions
